Earlier results in publication PMC4559355 (Journal of nuclear medicine : official publication, Society …, 2015).

Tests used:
[1] = mouse, in vivo; cited from earlier work
[2] = tested on: DX3puroβ6 tumor (αvβ6-positive); settings: mouse, in vivo, iv; cited from earlier work

Substance | Number of radioactive metabolites in urine [1] | Uptake in DX3puroβ6 tumor [2]
^18F-FBA-A20FMDV2 [compound 1] | 3 | 
^18F-FBA-PEG28-A20FMDV2 [compound 2] | 1 | 0.5 ± 0.1 %ID/g
